Experimental data as given in patent publication US20070099199A1.
“And” between values parts separate entries of the source, which are not always exact repeats. Equal values may be shown once. Read-outs that look alike come from different tables or passages of the source.

Tests used:
[1] = target: T1, HPV16 E6 C-terminal PDZ ligand (PL) peptide, biotinylated (human papillomavirus type 16); experiment: Matrix/G assay ELISA; E6 peptide titrated on GST-PDZ
[2] = target: T1, HPV16 E6 C-terminal PDZ ligand (PL) …; experiment: G assay ELISA; E6 PL peptide titrated on constant GST-PDZ
[3] = target: HPV E6 #16 PDZ ligand peptide (C-terminal peptide of the E6 protein of HPV 16) (HPV 16); experiment: G assay ELISA, immobilised GST-PDZ, biotin peptide 10 uM
[4] = target: HPV E6 #16 PDZ ligand peptide (C-terminal peptide of the E6 protein of HPV 16) (HPV 16); experiment: as above; remark: listed apart in the source

B1: GST-SAST1 PDZ domain, Q9Y2H9 963-1055 (protein)
chain: MSPILGYWKIKGLVQPTRLLLEYLEEKYEEHLYERDEGDKWRNKKFELGLEFPNLPYYIDGDVKLTQSMAIIRYIADKHNMLGGCPKERAEISMLEGAVLDIRYGVSRIAYSKDFETLKVDFLSKLPEMLKMFEDRLCHKTYLNGDHVTHPDFMLYDALDVVLYMDPMCLDAFPKLVCFKKRIEAIPQIDKYLKSSKYIAWPLQGWQATFGGGDHPPKSDLIEGRGLRSPITIQRSGKKYGFTLRAIRVYMGDTDVYSVHHIVWHVEEGGPAQEAGLCAGDLITHVNGEPVHGMVHPEVVELILKSGNKVAVTTTPFE
With B1 the EC50 [1] was 580 nM and the EC50 [2] was 580 nM.

B2: GST-TIP1 PDZ domain 1 (protein)
chain: MSPILGYWKIKGLVQPTRLLLEYLEEKYEEHLYERDEGDKWRNKKFELGLEFPNLPYYIDGDVKLTQSMAIIRYIADKHNMLGGCPKERAEISMLEGAVLDIRYGVSRIAYSKDFETLKVDFLSKLPEMLKMFEDRLCHKTYLNGDHVTHPDFMLYDALDVVLYMDPMCLDAFPKLVCFKKRIEAIPQIDKYLKSSKYIAWPLQGWQATFGGGDHPPKSDLIEGRQRVEIHKLRQGENLILGFSIGGGIDQDPSQNPFSEDKTDKGIYVTRVSEGGPAEIAGLQIGDKIMQVNGWDMTMVTHDQARKRLTKRSEEVVRLLVTRQSLQK
With B2 the OD S/N (ratio to GST-only well) [3] was 8.24 and 5.67 and the EC50 [2] was 750 nM.

B3: GST-novel PDZ gene PDZ domain 1 (protein)
chain: MSPILGYWKIKGLVQPTRLLLEYLEEKYEEHLYERDEGDKWRNKKFELGLEFPNLPYYIDGDVKLTQSMAIIRYIADKHNMLGGCPKERAEISMLEGAVLDIRYGVSRIAYSKDFETLKVDFLSKLPEMLKMFEDRLCHKTYLNGDHVTHPDFMLYDALDVVLYMDPMCLDAFPKLVCFKKRIEAIPQIDKYLKSSKYIAWPLQGWQATFGGGDHPPKSDLIEGRQANSDESDIIHSVRVEKSPAGRLGFSVRGGSEHGLGIFVSKVEEGSSAERAGLCVGDKITEVNGLSLESTTMGSAVKVLTSSSRLHMMVRRMGRVPGIKFSKEKNSS
With B3 the Ave OD [4] was 0.545 A450 nm and the OD S/N (ratio to GST-only well) [4] was 1.89.

B4: GST-VARTUL PDZ domain, Q14160 727-822 (protein)
chain: MSPILGYWKIKGLVQPTRLLLEYLEEKYEEHLYERDEGDKWRNKKFELGLEFPNLPYYIDGDVKLTQSMAIIRYIADKHNMLGGCPKERAEISMLEGAVLDIRYGVSRIAYSKDFETLKVDFLSKLPEMLKMFEDRLCHKTYLNGDHVTHPDFMLYDALDVVLYMDPMCLDAFPKLVCFKKRIEAIPQIDKYLKSSKYIAWPLQGWQATFGGGDHPPKSDLIEGRLTLTILRQTGGLGISIAGGKGSTPYKGDDEGIFISRVSEEGPAARAGVRVGDKLLEVNGVALQGAEHHEAVEALRGAGTAVQMRVWRERMVEPENA
B4 showed an EC50 [1] of 940 nM and an EC50 [2] of 940 nM.

B5: GST-PSD95 PDZ domain 2 (protein)
chain: MSPILGYWKIKGLVQPTRLLLEYLEEKYEEHLYERDEGDKWRNKKFELGLEFPNLPYYIDGDVKLTQSMAIIRYIADKHNMLGGCPKERAEISMLEGAVLDIRYGVSRIAYSKDFETLKVDFLSKLPEMLKMFEDRLCHKTYLNGDHVTHPDFMLYDALDVVLYMDPMCLDAFPKLVCFKKRIEAIPQIDKYLKSSKYIAWPLQGWQATFGGGDHPPKSDLIEGRHVMRRKPPAEKVMEIKLIKGPKGLGFSIAGGVGNQHIPGDNSIYVTKIIEGGAAHKDGRLQIGDKILAVNSVGLEDVMHEDAVAALKNTYDVVYLKVAKPSNAYL
In the case of B5, the EC50 [1] is reported as 6800 nM, the Ave OD [3] is reported as 2.7 A450 nm and 1.31 A450 nm and the OD S/N (ratio to GST-only well) [3] is reported as 12.2 and 12.5. It also gave an EC50 [2] of 6800 nM.
